Results of unrelated studies side by side (data: NIAID ChemDB).

Common to all: growth or infection tests; agent: HIV-1; measure: inhibition

Blank or dashed fields: not listed here. Rows are shuffled and stem from different studies. Percent inhibition refers to the dose given; in toxicity tests it is the harm to the cells.

structure | strain | cell line | read by | conditions | tested at | value
CN1CC[C@H](c2ccccc2)[C@@H](COc2ccc3c(c2)OCCO3)C1 | IIIB | MOLT-3 | syncytia |  | 4 µg/mL | 6%
Cc1coc(N2C(=O)CSC2c2c(Cl)ncnc2Cl)n1 | NL4-3 | TZM-bl | MTT |  | 5 µg/mL | <5%
CC(C)Nc1cccnc1N1CCN(C(=O)c2cc3cc(N=CN(C)C)ccc3[nH]2)CC1 | Seropositive clinical isolate A | PBMC | MTT |  | 1 µM | 100%
CCCCCN1CC[C@@H](c2ccc(F)cc2)[C@H](COc2ccc3c(c2)OCCO3)C1 | IIIB | MOLT-3 | p24 |  | 4 µg/mL | 17%
CCCCCn1c2ccccc2c2cc(C(=O)C3CSCCN3)nc(C)c21 | NL4-3 | CEM-GFP | p24 / ELISA / antigen |  | 1.36 µM | 0%
COC(=O)C(O)[C@H]1C(C)(C)[C@H](OC(C)=O)[C@]2(O)C=C3C4=CC(=O)O[C@@H](c5ccoc5)[C@]4(C)CC[C@@H]3[C@@]1(C)C2=O | NL4-3 | SupT1 | luciferase / luminescence | pseudotyped | 20 µM | 0%
CC(C)(CO)[C@@H](O)C(=O)NCCCC(=O)O | LAV | MT-4 |  |  | 100 µg/mL | 87%
CCC(C)C(=O)O[C@H]1C(C)(C)[C@H](CC(=O)OC)[C@]2(C)C(=O)[C@@]1(O)C=C1C3=CC(=O)O[C@@H](c4ccoc4)[C@]3(C)CC[C@@H]12 | NL4-3 | SupT1 | luciferase / luminescence | pseudotyped | 100 µM | 98.56%
c1cc(CN2CCCNCCNCCCNCC2)ccc1CN1CCCNCCNCCCNCC1 | SW7 CLADE C X4 | PBMC | p24 |  | 0.1 µM | 87%
Cc1cn([C@H]2C[C@H](N=[N+]=[N-])[C@@H](CO)O2)c(=O)[nH]c1=O | IIIB | MOLT-4 | p24 |  | 1 µM | 95%
CNCCC=C1c2ccccc2CCc2ccccc21 | IIIB | MOLT-3 | syncytia |  | 5 µg/mL | 24%
Cc1cn([C@H]2C[C@H](N=[N+]=[N-])[C@@H](CO)O2)c(=O)[nH]c1=O | SF162 | Monocytes + Monocyte | p24 / ELISA |  | 0.0034 µg/mL | 90%
COC(=O)C(Cc1ccc(O)cc1)N=C=S | NL4-3 | CEM-GFP | MTT |  | 1 µg/mL | 55.37%
COc1ccc(OC[C@H]2CNCC[C@@H]2c2ccccc2)cc1 | IIIB | MOLT-3 | p24 |  | 4 µg/mL | 0%
COC(=O)C1Cc2c(c3ccccc3n2C)C(C)=N1 | NL4-3 | CEM-GFP | p24 / ELISA / antigen |  | 19.66 µM | 0%
O=C(OCC1(COC(=O)c2cccnc2)CCCC(COC(=O)c2cccnc2)(COC(=O)c2cccnc2)C1O)c1cccnc1 | LAV | MT-4 |  |  | 100 µg/mL | 0%
C#CCn1c2ccccc2c2cc(C(=O)C3CSCCN3)nc(C)c21 | NL4-3 | CEM-GFP | p24 / ELISA / antigen |  | 21.46 µM | 0%
CCC[C@@]1(CCc2ccccc2)CC(O)=C([C@H](CC)c2cccc(NS(=O)(=O)c3ccc(C(F)(F)F)cn3)c2)C(=O)O1 | Isolate N. Amer 2 | PBMC | p24 |  | 0.17 µM | 90%
CC(=O)[C@H]1CC[C@H]2[C@@H]3CCC4=CC(=O)CC[C@]4(C)[C@H]3CC[C@]12C |  | U1 | p24 |  | 0.1 µM | 40.5%
CN1CCN(CCCN2c3ccccc3Sc3ccc(Cl)cc32)CC1 | LAV | MT-4 |  |  | 100 µg/mL | 99.9%
COc1ccc(OC[C@@H]2CN(C)CC[C@H]2c2ccccc2)cc1 | IIIB | MOLT-3 | p24 |  | 10 µg/mL | 48%
Cc1c(N)nc([C@H](CC(N)=O)NC[C@H](N)C(N)=O)nc1C(=O)N[C@H](C(=O)N[C@H](C)[C@@H](O)[C@H](C)C(=O)N[C@H](C(=O)NCCc1nc(-c2nc(C(=O)NCCC[S+](C)C)cs2)cs1)[C@@H](C)O)C(O[C@@H]1O[C@@H](CO)[C@@H](O)[C@H](O)[C@@H]1O[C@H]1O[C@H](CO)[C@@H](O)[C@H](OC(N)=O)[C@@H]1O)c1cnc[nH]1 | BaL | Macrophage + Monocytes/macrophages | XTT / p24 |  | 0.3 µg/mL | 39%
COC(=O)C(Cc1c[nH]c2ccccc12)N=C=S | NL4-3 | CEM-GFP | MTT |  | 56.33 µg/mL | 1%
Cc1cn([C@H]2C[C@H](N=[N+]=[N-])[C@@H](CO)O2)c(=O)[nH]c1=O | NL4-3 Recombinant | Jurkat cells | luciferase |  | 0.01 µM | 65%
CC(=O)N[C@@H](CS)C(=O)O | LAV | U1 (HIV-1 LAV PMA stimulated) + U1 | RT activity |  | 1000 µM | 25%
COC(=O)[C@@H]1C2CCC(C[C@@H]1OC(=O)c1ccccc1)N2C | IIIB | SupT1 + Sup-T1 | p24 |  | 50 µg/mL | <0%
O=C1CN=C(c2ccccc2)c2cc([N+](=O)[O-])ccc2N1 | LAV | MT-4 |  |  | 100 µg/mL | 99.6%
COC(=O)C(C)N=C=S | NL4-3 | CEM-GFP | MTT |  | 1 µM | 61.67%
NC12CC3CC(CC(C3)C1)C2 | LAV | MT-4 |  |  | 10 µg/mL | 80%
CCC(C)C(=O)O[C@H]1[C@@]2(C)C[C@]3(O)[C@@]1(O)C(=O)C1=C(CC[C@]4(C)C1=CC(=O)O[C@H]4c1ccoc1)[C@]3(C)[C@H]2C(O)C(=O)OC | NL4-3 | SupT1 | luciferase / luminescence | pseudotyped | 100 µM | 31.83%
O=C1CSC(c2c(Cl)cncc2Cl)N1n1cnnc1 | NL4-3 | TZM-bl | MTT |  | 5 µg/mL | 26.58%
C=CC1=C(C)C(/C=c2/[nH]/c(=C/c3[nH]c(/C=C4/NC(=O)C(C)=C4C=C)c(C)c3CCC(=O)O)c(CCC(=O)O)c2C)=NC1=O | LAV | MOLT-4 | syncytia |  | 66.7 µg/mL | 100%
N[C@@H](CCC(=O)N[C@@H](CS)C(=O)NCC(=O)O)C(=O)O | LAV | MT-4 |  |  | 100 µg/mL | 0%
Oc1ccc(/C=C/c2cc(O)cc(O)c2)cc1 | EJC-R2 | PBMC | p24 | clinical isolate | 10 µM | 10%
NC(N)=NCCC[C@@H](C=O)NC(=O)CNC(=O)[C@@H]1CCCN1C(=O)CNC(=O)[C@@H](N)CCCN=C(N)N | ELI | HUT | p24 |  | 250 µg/mL | 0%
CC(=O)N1CCC(C(=O)N(CCCN2CCC(Cc3ccc(C(N)=O)cc3)CC2)c2ccc(C)c(Cl)c2)CC1 | CTV R5 clinical isolate | PBMC | p24 |  | 0.005 µM | 90%
Nc1ncnc2c1ncn2[C@H]1CC[C@@H](CO)O1 | LAV-1 | CEM | virus yield |  | 10 µM | 99.9%
COC(=O)[C@H](OC(C)=O)[C@H]1C(C)(C)[C@H](OC(=O)C(C)C)[C@]2(O)CC3=C4CC(=O)O[C@@H](c5ccoc5)[C@]4(C)CC[C@@H]3[C@@]1(C)C2=O | NL4-3 | SupT1 | luciferase / luminescence | pseudotyped | 20 µM | 17.49%
O=S1CCC(N=C=S)CC1 | NL4-3 | CEM-GFP | MTT |  | 1 µM | 48.56%
COC(=O)c1cc2c([nH]c3ccccc32)c(C=O)n1 | NL4-3 | CEM-GFP | p24 / ELISA / antigen |  | 9.83 µM | 78.17%
CCCCC[C@H](O)/C=C/[C@H]1C=CC(=O)[C@@H]1C/C=C\CCCC(=O)O | IIIB | C8166 | syncytia |  | 20 µM | 99%
NCC(=O)N1CCC[C@H]1C(=O)NCC=O | ELI | HUT | p24 |  | 25 µg/mL | 0%
COc1cc(OC)nc(N2C(=O)CSC2c2c(Cl)ncnc2Cl)n1 | NL4-3 | TZM-bl | MTT |  | 5 µg/mL | 96.97%
NC(N)=NCCC[C@@H](C=O)NC(=O)CNC(=O)[C@@H]1CCCN1 | IIIB | H9 | p24 |  | 250 µg/mL | 0%
Cc1ncc(CSSCc2cnc(C)c(O)c2CO)c(CO)c1O | LAV | MT-4 |  |  | 100 µg/mL | 0%
O=C1CSC(c2c(Cl)cccc2Cl)N1n1cnnc1 | NL4-3 | TZM-bl | MTT |  | 5 µg/mL | 39.08%
CCCC(=O)OC[C@@H](OC(=O)CCC)[C@@H](OC(=O)CCC)[C@H](Cn1c2nc(=O)[nH]c(=O)c-2nc2cc(C)c(C)cc21)OC(=O)CCC | LAV | MT-4 |  |  | 100 µg/mL | 0%
NCC(=O)N1CCC[C@H]1C(=O)NCC(=O)N[C@H](C=O)CCCN=C(N)N | ELI | HUT | p24 |  | 250 µg/mL | 73.6%
Nc1c(S(=O)(=O)O)cc2c3c(cc(S(=O)(=O)O)cc13)C(=O)N(NC(=O)N/N=C/c1cccc(C=O)c1)C2=O |  | MT-2 | syncytia |  | 10 µM | 0%
COC(=O)C(OC(C)=O)[C@H]1C(C)(C)[C@H](OC(C)=O)[C@]2(O)CC3=C(CC[C@]4(C)C3=CC(=O)O[C@H]4c3ccoc3)[C@@]1(C)C2=O | NL4-3 | SupT1 | luciferase / luminescence | pseudotyped | 100 µM | 0%
CCCCCCCCCCCCCCCCCC(=O)NCC(COP(=O)([O-])OCC[N+](C)(C)C)OCC | LAV | U1(HIV-1 (LAV)) + U1 | plaque count / syncytia |  | 1 µM | 67%
CC(C)[C@H](NC(=O)c1ccc2ccccc2n1)C(=O)N[C@@H](Cc1ccccc1)[C@H](O)CN1CC[C@@H](OCc2ccncc2)C[C@H]1C(=O)NC(C)(C)C | Nevirapine-resistant | C8166 | p24 |  | 0.029 µM | 90%
O=C1CSC(c2c(F)cccc2Cl)N1n1cnnc1 | NL4-3 | TZM-bl | MTT |  | 5 µg/mL | 12.63%
COc1ccc(CN[C@@H](C(=O)N[C@H](C(=O)NCc2nc3ccccc3[nH]2)C(C)C)[C@H](O)[C@H](Cc2ccccc2)NC(=O)[C@@H](NC(=O)OCc2ccccc2)C(C)(C)C)cc1 | D747 | Monocytes + Monocyte | p24 | clinical isolate | 0.084 µM | 90%
CCCCC[C@H](O)/C=C/C1=C(CCCCCCC(=O)O)C(=O)CC1 | IIIB | C8166 | syncytia |  | 40 µM | 0%
CN1CC[C@@H](c2ccccc2)[C@H](COc2ccc3c(c2)OCCO3)C1 | IIIB | MOLT-3 | p24 |  | 0.8 µg/mL | 7%

For reference, 3 entries again:

structure | strain | cell line | read by | conditions | tested at | value
Nc1c(S(=O)(=O)O)cc2c3c(cc(S(=O)(=O)O)cc13)C(=O)N(NC(=O)N/N=C/c1cccc(C=O)c1)C2=O |  | MT-2 | syncytia |  | 10 µM | 0%
CCCCCN1CC[C@@H](c2ccc(F)cc2)[C@H](COc2ccc3c(c2)OCCO3)C1 | IIIB | MOLT-3 | p24 |  | 4 µg/mL | 17%
NCC(=O)N1CCC[C@H]1C(=O)NCC=O | ELI | HUT | p24 |  | 25 µg/mL | 0%